The source of these data is ChEMBL document CHEMBL1151959, “Identification and biological evaluation of a series of 1H-benzo[de]isoquinoline-1,3(2H)-diones as hepatitis C virus NS5B polymerase inhibitors” (J Med Chem, 2009).

Chains of the proteins cited; added tags and fusions are not shown.
UniProt O39930, entry or part of it M423K: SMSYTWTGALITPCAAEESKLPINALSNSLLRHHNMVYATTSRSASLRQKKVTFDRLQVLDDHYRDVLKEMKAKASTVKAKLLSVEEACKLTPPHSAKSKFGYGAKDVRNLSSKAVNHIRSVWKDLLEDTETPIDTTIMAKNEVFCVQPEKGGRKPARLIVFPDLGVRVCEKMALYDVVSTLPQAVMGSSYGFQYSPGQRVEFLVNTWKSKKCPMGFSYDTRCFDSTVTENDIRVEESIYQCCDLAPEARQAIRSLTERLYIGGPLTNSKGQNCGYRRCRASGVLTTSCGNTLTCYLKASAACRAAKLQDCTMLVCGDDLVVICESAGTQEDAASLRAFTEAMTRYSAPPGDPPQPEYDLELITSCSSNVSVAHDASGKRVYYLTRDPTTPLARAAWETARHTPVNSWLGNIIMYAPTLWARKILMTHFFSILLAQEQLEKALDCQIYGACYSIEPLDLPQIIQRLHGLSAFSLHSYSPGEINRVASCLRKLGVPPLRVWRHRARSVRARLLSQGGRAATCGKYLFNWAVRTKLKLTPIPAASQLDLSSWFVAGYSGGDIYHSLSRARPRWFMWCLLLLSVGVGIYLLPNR
UniProt O39930, entry or part of it M414T: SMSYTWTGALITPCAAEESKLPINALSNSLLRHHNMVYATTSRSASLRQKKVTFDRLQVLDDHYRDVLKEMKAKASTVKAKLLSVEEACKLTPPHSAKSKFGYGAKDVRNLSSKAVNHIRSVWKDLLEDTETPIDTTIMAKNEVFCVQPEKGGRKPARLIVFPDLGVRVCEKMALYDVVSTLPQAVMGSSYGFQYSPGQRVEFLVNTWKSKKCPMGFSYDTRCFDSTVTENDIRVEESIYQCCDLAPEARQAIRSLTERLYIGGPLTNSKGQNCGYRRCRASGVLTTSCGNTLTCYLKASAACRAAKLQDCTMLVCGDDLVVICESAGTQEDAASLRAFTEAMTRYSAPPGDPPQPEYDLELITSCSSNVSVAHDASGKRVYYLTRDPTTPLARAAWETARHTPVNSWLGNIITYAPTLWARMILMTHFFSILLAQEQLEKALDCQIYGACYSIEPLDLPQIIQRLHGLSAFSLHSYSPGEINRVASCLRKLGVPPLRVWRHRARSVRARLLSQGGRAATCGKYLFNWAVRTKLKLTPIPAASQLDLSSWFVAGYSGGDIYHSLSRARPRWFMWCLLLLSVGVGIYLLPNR

What all share (parameters): species or system Hepatitis C virus (isolate BK)
Test [1] in a line: Inhibition of HCV1b BK NS5B Cdelta21 RNA dependent RNA polymerase Thumb site 2 R501E mutant.
The target in test [2] is RNA-directed RNA polymerase (Hepacivirus hominis, UniProt O39930, M423K). The test is described as follows: Inhibition of HCV1b BK NS5B Cdelta21 RNA dependent RNA polymerase Thumb site 2 M423K mutant.
Test [3] deals with RNA-directed RNA polymerase (Hepacivirus hominis, UniProt O39930, M414T). As to the kind of experiment: Inhibition of HCV1b BK NS5B Cdelta21 RNA dependent RNA polymerase Palm site 1 and 2 M414T mutant.

As a reminder, the IC50 is the concentration needed to halve the response being measured. High values mean weaker potency in that assay, low ones greater potency in that assay. Consider `O=C1c2cccc3c(NCCO)ccc(c23)C(=O)N1c1cccc(Br)c1`, for which the IC50 is 500 nM in test [1], greater than 1000 nM in test [2] and 78 nM in test [3].
